Pooled drug test results. Numbers come from NIAID ChemDB, via PubChem.

Common to all: growth or infection tests; species: Reovirus; strain: TYPE 1; method: cytopathic effect; read-out: EC50

Rows are shuffled and stem from different studies. ECn is the concentration giving n% inhibition of infection, replication or growth.

structure,cells,result
Cc1cn([C@H]2O[C@H](CO)[C@@H](N=[N+]=[N-])[C@H]2F)c(=O)nc1N,VERO B,>400 µg/mL
Cc1cn([C@@H]2O[C@H](CO)[C@](O)(C(F)(F)F)[C@H]2O)c(=O)[nH]c1=O,VERO,>200 µg/mL
Cc1nc(Cc2ccccc2)c2[nH]c(=S)[nH]c(=O)n12,VERO,>100 µg/mL
Nc1nc(Cl)c2ncn([C@H]3CO[C@@H](CO)C3)c2n1,VERO,>400 µg/mL
Nc1ncnc2c1ncn2C1CC(CO)[C@@H](O)[C@H]1O,VERO,2 µg/mL
C=CCc1nc(C)n2c(=O)[nH]cnc12,VERO,>200 µg/mL
C=C(N=CC)c1nc(-c2ccc(OC)cc2)n([C@@H]2O[C@H](CO)[C@@H](O)[C@H]2O)n1,VERO,>100 µg/mL
Cc1cn(CC[C@H](O)CCO)c(=O)[nH]c1=O,VERO,>400 µg/mL
Nc1ncnc2c1ncn2[C@H]1C[C@@H](CO)[C@H](O)[C@@H]1O,VERO,>400 µg/mL
[N-]=[N+]=N[C@H]1[C@@H](F)[C@H](n2cnc3c(N)ncnc32)O[C@@H]1CO,VERO B,>200 µg/mL
CON=C[C@H]1O[C@@H](n2cnc3c(N)ncnc32)[C@H](O)[C@@H]1O,VERO,>100 µg/mL
CC1(CO)CCC(Cn2nnc3c(N)ncnc32)C1(C)C,VERO,>40 µg/mL
CC(C)CS[C@@H]1C[C@H](n2cnc3c(N)ncnc32)[C@@H](O)[C@H]1O,HeLa,>80 µg/mL
S=c1[nH]n2c(-c3cn(-c4ccccc4)nc3-c3ccccc3)nnc2s1,VERO,>80 µg/mL
CC1(CO)CCC(Cn2nnc3c(=O)[nH]cnc32)C1(C)C,VERO,>400 µg/mL
NC(=O)CSc1ncnc2c1cnn2COCCO,VERO,>400 µg/mL
Nc1nc(F)nc2c1ncn2[C@@H]1C=C(CO)[C@@H](O)[C@H]1O,VERO,0.7 µg/mL
C=C(N=CC)c1nc(-c2ccc(OC)cc2)n(C2O[C@H](CO)[C@@H](O)[C@H](O)[C@H]2O)n1,VERO,>200 µg/mL
c1ccc(-c2nn3c(-c4cn(-c5ccccc5)nc4-c4ccccc4)nnc3s2)cc1,VERO,>16 µg/mL
Cc1nc(C(C)C)c2[nH]c(=S)[nH]c(=O)n12,VERO,>200 µg/mL
Nc1ncnc2c1ncn2[C@@H]1O[C@H](/C=N/O)[C@@H](O)[C@@H]1O,VERO,>40 µg/mL
CC1=Nn2c(nnc2-c2cn(-c3ccccc3)nc2-c2ccccc2)SC1,VERO,>16 µg/mL
Nc1nccc2c1ncn2[C@@H]1C[C@H](CO)[C@@H](O)[C@H]1O,VERO,4 µg/mL
O=C1CSc2nnc(-c3cn(-c4ccccc4)nc3-c3ccccc3)n2N1,VERO,>16 µg/mL
CO[C@H](CO)[C@@H](O)CCn1cnc2c(N)ncnc21,VERO,>400 µg/mL
C=C(N=CC)c1nc(-c2ccccc2)n([C@@H]2O[C@H](CO)[C@@H](O)[C@H]2O)n1,VERO,>100 µg/mL
Nc1ccn([C@@H]2C=C(CO)[C@@H](O)[C@H]2O)c(=O)n1,VERO,0.1 µg/mL
Nn1c(-c2cn(-c3ccccc3)nc2-c2ccccc2)n[nH]c1=S,VERO,>16 µg/mL
CO[C@H](CO)[C@@H](O)CCn1cnc2c(=O)[nH]c(N)nc21,VERO,>400 µg/mL
NC(=O)CSc1ncnc2c1cnn2CCCCO,VERO,>400 µg/mL
CC(=O)Nn1c(-c2cn(-c3ccccc3)nc2-c2ccccc2)n[nH]c1=S,VERO,>80 µg/mL
Nc1ncnc2c1ncn2CC[C@H](O)CCO,VERO,>400 µg/mL
Nc1ncnc2c1ncn2[C@H]1C[C@H](O)[C@@H](C=O)O1,VERO,>200 µg/mL
CCOC(=O)C1=CSc2nnc(-c3cn(-c4ccccc4)nc3-c3ccccc3)n2N=C1N,VERO,>16 µg/mL
Nc1nc2c(ncn2[C@H]2CO[C@@H](CO)C2)c(=O)[nH]1,VERO,>400 µg/mL
CCC(Sc1ncnc2c1cnn2COCCO)C(N)=O,VERO,>400 µg/mL
CC1(C)[C@@H](CO)CC[C@@]1(C)Cn1cc(I)c(=O)[nH]c1=O,VERO,>400 µg/mL
CC=NC(=N)c1nc(-c2cccc(OC)c2)n(C/C=C/c2ccccc2)n1,VERO,>40 µg/mL
CC1(C)[C@@H](CO)CC[C@@]1(C)Cn1cnc2c(=O)[nH]cnc21,VERO,>400 µg/mL
OC[C@H]1O[C@@H](c2cc(Cl)c(F)cc2F)C[C@@H]1O,VERO,>80 µg/mL
Nc1ncnc2c1ncn2[C@@H]1O[C@H](CO)[C@](O)(C(F)(F)F)[C@H]1O,VERO,>200 µg/mL
CC1(CO)CCC(Cn2cnc3c(=O)[nH]cnc32)C1(C)C,VERO,>200 µg/mL
CC1(C)[C@@H](CO)CC[C@@]1(C)Cn1cc(Br)c(=O)[nH]c1=O,VERO,>400 µg/mL
Nc1ncnc2c1ncn2[C@@H]1O[C@H](C=O)[C@@H](O)[C@H]1O,VERO,>200 µg/mL

A second listing of 2 rows from above:

structure | cells | result
Nc1ncnc2c1ncn2C1CC(CO)[C@@H](O)[C@H]1O | VERO | 2 µg/mL
CC1(C)[C@@H](CO)CC[C@@]1(C)Cn1cc(I)c(=O)[nH]c1=O | VERO | >400 µg/mL